Values from PubChem BioAssay AID504761 (Drosophila RNAi Screening Center, 2011).

Aim: 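Genome-wide fly cell screen for genes dengue virus requires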 (primary screen)
System: D.Mel-2 cells from Drosophila
Knock-down reagent: long dsRNA against Drosophila genes
Treatment: infection with dengue virus type 2; dose and infection time not stated
Measured: 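Cells stained for dengue envelope protein and imaged; percent of infected cells per well on duplicate plates, ranked by infection, with stained nuclei counted for cell number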
Direction: infection score: higher = more virus-infected cells; cell count: higher = more cells in the well
Hit rule: 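Low infection ranks in the two replicates (chance level up to 0.065) followed by a retest with a 1.5-fold or larger significant decrease, p below 0.05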
Calls: active = confirmed: knock-down lowers infection; inactive = not picked or not confirmed
The deposit covers about 22,000 reagents; this is an unselected part of those that have a named target and a result. Of all reagents, 116 (0.52%) are marked active. 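Calls depend on retest data that are not deposited; infection was ranked per plate without normalising between plates; the unit of the infection score is not given.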 The raw values are shown without normalisation. Not all columns of the deposit are shown. Reagent sequences are not shown. Not given: the amount of reagent, the time to read-out.

Knock-down of eIF2D [DRSC13916] resulted in: infection score, replicate 1 = 3.98; cell count, replicate 1 = 4470; inactive.
With knock-down of sisA [DRSC20374], the record shows infection score, replicate 1 = 1.16; cell count, replicate 1 = 6741; inactive.
Against sisA [DRSC29331], the values are infection score, replicate 1 = 12.8; cell count, replicate 1 = 3312; inactive.
Brd [DRSC09685] scored infection score, replicate 1 = 1.31; cell count, replicate 1 = 6120; inactive.
Against Adgf-A2 [DRSC09507], the entry reads infection score, replicate 1 = 0.17; cell count, replicate 1 = 6509; active.
With knock-down of yellow-e3 [DRSC15170] the results were infection score, replicate 1 = 1.02; cell count, replicate 1 = 6684; inactive.
Silencing of Drp1 [DRSC00574] came out at: infection score, replicate 1 = 5.37; cell count, replicate 1 = 5344; inactive.
Depletion of Drp1 [DRSC26413] came out at: infection score, replicate 1 = 2.66; cell count, replicate 1 = 5756; inactive.
Depletion of CG14229 [DRSC19585] gave: infection score, replicate 1 = 4.93; cell count, replicate 1 = 5818; inactive.
Against CG14229 [DRSC23149], the entry reads infection score, replicate 1 = 1.21; cell count, replicate 1 = 6504; inactive.
For phu [DRSC16390] the deposit lists infection score, replicate 1 = 19.2; cell count, replicate 1 = 6048; inactive.

Taken from above.
Value for CG14229 [DRSC19585] in “activity call”: inactive
Entry for CG14229 [DRSC23149] in “infection score, replicate 1”: 1.21
Value of sisA [DRSC29331] under “activity call”: inactive

Next reagents:
Against CG5131 [DRSC02817] the deposit lists infection score, replicate 1 = 2.18; cell count, replicate 1 = 733; inactive.
For Fum3 [DRSC10592] the deposit lists infection score, replicate 1 = 0.73; cell count, replicate 1 = 6034; inactive.
After knock-down of Fum3 [DRSC25432], the screen gave infection score, replicate 1 = 10.9; cell count, replicate 1 = 6705; inactive.
With knock-down of CG43347 [DRSC23007], the record shows infection score, replicate 1 = 0.98; cell count, replicate 1 = 5523; inactive.
Knock-down of CG43347 [DRSC23170] came out at: infection score, replicate 1 = 2.99; cell count, replicate 1 = 6416; inactive.
CG43347 [DRSC25782] scored infection score, replicate 1 = 1.88; cell count, replicate 1 = 6154; inactive.
For CG43347 [DRSC29367], the entry reads infection score, replicate 1 = 19; cell count, replicate 1 = 5600; inactive.
For lola [DRSC05220], the values are infection score, replicate 1 = 2.41; cell count, replicate 1 = 5767; inactive.
After knock-down of lola [DRSC05221] the results were infection score, replicate 1 = 2.86; cell count, replicate 1 = 5251; inactive.
After knock-down of lola [DRSC05222], the record shows infection score, replicate 1 = 0.08; cell count, replicate 1 = 5954; active.
Depletion of lola [DRSC05223] came out at: infection score, replicate 1 = 0.33; cell count, replicate 1 = 5704; inactive.
For lola [DRSC05224] the deposit lists infection score, replicate 1 = 2.56; cell count, replicate 1 = 5733; inactive.
Silencing of lola [DRSC06738] gave: infection score, replicate 1 = 18.1; cell count, replicate 1 = 5915; inactive.
Depletion of lola [DRSC06740] resulted in: infection score, replicate 1 = 11.7; cell count, replicate 1 = 5962; inactive.
Against lola [DRSC06741] the deposit lists infection score, replicate 1 = 8; cell count, replicate 1 = 6762; inactive.
For lola [DRSC07646], the entry reads infection score, replicate 1 = 13.9; cell count, replicate 1 = 6344; inactive.
Silencing of lola [DRSC07647] gave: infection score, replicate 1 = 3.16; cell count, replicate 1 = 5447; inactive.
lola [DRSC27862] scored infection score, replicate 1 = 6.82; cell count, replicate 1 = 4517; inactive.
